PubChem BioAssay AID624099, ICCB-Longwood | 2012
In all, the deposit lists about 21,000 reagents; below is a part drawn at random. 497 of all reagents (2.4%) count as active. 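Higher z means weaker E2 silencing; only reporter increases were scored, and knock-downs that hurt cell survival may mask genuine repressor factors.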 A number with no mark means an inactive call.

Test: 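Host factors E2 relies on to silence an HPV18 LCR reporter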 (primary screen)
Cell system: human C33A cervical carcinoma cells (HPV-negative) stably expressing BPV1 E2 and an HPV18 LCR luciferase reporter
Knock-down reagent: siRNA pool against human genes, 40 nM
Timing: 72 h
Measured: 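HPV18 LCR reporter light per well, converted to plate-wise z-scores that exclude control wells, and averaged over triplicate plates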
Scale: mean z-score and z-score: higher = stronger reporter signal, weaker E2 silencing
Hit rule: 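Mean z ≥ 2 together with z ≥ 2 in two or more of the three replicates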

Depletion of RAB21 (RAB21, member RAS oncogene family) gave: mean z-score 0.3; z-score, replicate A = 0.45; z-score, replicate B = 0.06; z-score, replicate C = 0.38.
With knock-down of ZNF76 (zinc finger protein 76), the screen gave mean z-score -0.49; z-score, replicate A = -0.29; z-score, replicate B = -0.42; z-score, replicate C = -0.75.
CLEC3A (C-type lectin domain family 3 member A) scored mean z-score -0.13; z-score, replicate A = -0.16; z-score, replicate B = -0.19; z-score, replicate C = -0.05.
Silencing of PDGFA (platelet derived growth factor subunit A) came out at: mean z-score -0.72; z-score, replicate A = -0.8; z-score, replicate B = -0.73; z-score, replicate C = -0.64.
With knock-down of HSPB6 (heat shock protein family B (small) member 6), the screen gave mean z-score 0.26; z-score, replicate A = -0.08; z-score, replicate B = 0.13; z-score, replicate C = 0.74.
RP9 (RP9 pre-mRNA splicing factor) showed mean z-score -0.4; z-score, replicate A = -0.33; z-score, replicate B = -0.4; z-score, replicate C = -0.47.
Knock-down of CYB5R2 (cytochrome b5 reductase 2) gave: mean z-score 0.16; z-score, replicate A = 0.05; z-score, replicate B = 0.22; z-score, replicate C = 0.2.
SBK1 (SH3 domain binding kinase 1) scored mean z-score 1; z-score, replicate A = 0.99; z-score, replicate B = 0.69; z-score, replicate C = 1.31.
Silencing of CNTNAP4 (contactin associated protein family member 4) came out at: mean z-score 2.1 (active); z-score, replicate A = 2.09; z-score, replicate B = 1.98; z-score, replicate C = 2.22.
ZNF696 (zinc finger protein 696) showed mean z-score -2.24; z-score, replicate A = -2.08; z-score, replicate B = -2.46; z-score, replicate C = -2.17.
For MTPN (myotrophin) the deposit lists mean z-score -1.94; z-score, replicate A = -1.92; z-score, replicate B = -1.85; z-score, replicate C = -2.05.
Silencing of CT62 (cancer/testis associated 62) resulted in: mean z-score 1.42; z-score, replicate A = 1.56; z-score, replicate B = 1.08; z-score, replicate C = 1.62.
SLAMF7 (SLAM family member 7) scored mean z-score 0.57; z-score, replicate A = 0.99; z-score, replicate B = 0.61; z-score, replicate C = 0.1.
Silencing of NUS1 (NUS1 dehydrodolichyl diphosphate synthase subunit) came out at: mean z-score -0.02; z-score, replicate A = -0.17; z-score, replicate B = 0.14; z-score, replicate C = -0.04.
After knock-down of TAPBP (TAP binding protein) the results were mean z-score -0.4; z-score, replicate A = -0.36; z-score, replicate B = -0.31; z-score, replicate C = -0.53.
For SNCA (synuclein alpha), the entry reads mean z-score 1.34; z-score, replicate A = 1.27; z-score, replicate B = 1.13; z-score, replicate C = 1.62.
BLOC1S2 (biogenesis of lysosomal organelles complex 1 subunit 2) showed mean z-score 0.17; z-score, replicate A = 0.36; z-score, replicate B = 0.06; z-score, replicate C = 0.1.
Knock-down of MAML3 (mastermind like transcriptional coactivator 3) gave: mean z-score -0.76; z-score, replicate A = -0.93; z-score, replicate B = -0.99; z-score, replicate C = -0.36.
Against IRF2 (interferon regulatory factor 2), the entry reads mean z-score 0.32; z-score, replicate A = 0.35; z-score, replicate B = 0.39; z-score, replicate C = 0.21.
After knock-down of OFCC1 (orofacial cleft 1 candidate 1 (pseudogene)), the record shows mean z-score 1.33; z-score, replicate A = 1.63; z-score, replicate B = 1.16; z-score, replicate C = 1.2.
With knock-down of LOC389910 (retired record), the screen gave mean z-score 0.33; z-score, replicate A = 0.2; z-score, replicate B = 0.33; z-score, replicate C = 0.44.

Single entries from above.
SNCA (synuclein alpha), z-score, replicate B = 1.13
ZNF76 (zinc finger protein 76), mean z-score = -0.49
